Data set [1] has as its system HCV replicon in Huh-5-2 cells. Put plainly: Anti-HCV replicon assay, luciferase activity in Huh-5-2 cells. The settings on record: Table 11; HCV-Huh-5-2 replicon cells; ratio CC50 / EC50. The data set is classed as cell-based, Hepatitis C Virus. How it is done:
Cells were seeded at a density of 7000 cells per well in 96 well View Plate™ (Packard) in medium containing the same components as described above, except for G418. Cells were allowed to adhere and proliferate for 24 hr. At that time, culture medium was removed and serial dilutions of the test compounds were added in culture medium lacking G418. Interferon alfa 2a (500 IU) was included as a positive control. Plates were further incubated at 37° C. and 5% CO2 for 72 hours. Replication of the HCV replicon in Huh-5 cells results in luciferase activity in the cells. Luciferase activity is measured by adding 50 μl of 1× Glo-lysis buffer (Promega) for 15 minutes followed by 50 ul of the Steady-Glo Luciferase assay reagent (Promega). Luciferase activity is measured with a luminometer and the signal in each individual well is expressed as a percentage of the untreated cultures. […] Instead the density of the culture is measured by means of the MTS method (Promega).
In general terms: Replicon systems follow genome replication, usually without infectious particles.

The subject of another data set is BVDV-1 (strain PE515). Put plainly: Anti-BVDV assay, virus-induced cytopathic effect in MDBK cells (MTS). Format: cell-based, Bovine Viral Diarrhea Virus. The procedure: Madin-Darbey Bovine Kidney (MDBK) cells were maintained in Dulbecco's modified Eagle medium (DMEM) supplemented with BVDV-free 5% fetal calf serum (DMEME-FCS) at 37° C. in a humidified, 5% CO2 atmosphere. BVDV-1 (strain PE515) was used to assess the antiviral activity in MDBK cells. Vero cells were maintained in the same way as MDBK cells. Vero cells were infected with Coxsackie B3 virus (strain Nancy).
Ninety-six-well cell culture plates were seeded with MDBK cells in DMEM-FCS so that cells reached 24 hr later confluency. Then medium was removed and serial 5-fold dilutions of the test compounds were added in a total volume of 100 ul, after which the virus inoculum (100 ul) was added to each well. […] Uninfected cells and cells receiving virus without compound were included in each assay plate. After 5 days, medium was removed and 90 μl of DMEM-FCS and 10 ul of MTS/PMS solution (Promega) was added to each well. Following a 2 hr incubation period at 37° C. the optical density of the wells was read at 498 nm in a microplate reader.
For orientation: Cytopathic effects are the visible damage that an infection or toxin causes in cultured cells.

Where [2] appears, read: Table 9, SI: IC50/EC50 (MDBK growth / anti-BVDV).

In the case of `Brc1ccc(Cn2ccc3nc(CSc4ccccc4)nc-3c2)cc1` [GPJN-83, 5-[(4-Bromophenyl)methyl]-2-[(phenylthio)methyl]-5H-imidazo[4,5-c]pyridine], the SI in data set [1] is listed as >12.

For `FC(F)(F)c1cccc(-c2nc3ccn(Cc4ccc(Br)cc4)cc-3n2)c1` [GPJN-87, 5-[(4-Bromophenyl)methyl]-2-[3-(trifluoromethyl)phenyl]-5H-imidazo[4,5-c]pyridine], in data set [1], the SI is reported as >32.

Turning to `Clc1c2nc(-c3ccccc3)nc-2ccn1Cc1ccc(Br)cc1` [GPJN-96, 5-[(4-Bromophenyl)methyl]-4-chloro-2-phenyl-5H-imidazo[4,5-c]pyridine], the SI in data set [1] turned out to be 3.

With `Fc1ccccc1-c1nc2ccn(Cc3ccc(I)cc3)cc-2n1` [GPJN-113, 2-(2-Fluorophenyl)-5-[(4-iodophenyl)methyl]-5H-imidazo[4,5-c]pyridine], the SI in data set [1] worked out at 82; in the data set with BVDV-1 (strain PE515) (Table 10, SI: MTC/EC50) it was 6452.

For the molecule `CC(C)(C)c1ccc(Cn2ccc3nc(-c4ccccc4)nc-3c2)cc1` [GPJN-16, 5-[[4-(1,1-Dimethylethyl)phenyl]methyl]-2-phenyl-5H-imidazo[4,5-c]pyridine], the SI in data set [1] is on record as 3; in the data set on BVDV-1 (strain PE515) (setting [2]), 33.

For the molecule `Brc1ccc(Cn2ccc3nc(-c4cccc5ccccc45)nc-3c2)cc1` [GPJN-62, 5-[(4-Bromophenyl)methyl]-2-(1-naphthalenyl)-5H-imidazo[4,5-c]pyridine], the SI in data set [1] is reported as >10; in the data set on BVDV-1 (strain PE515) (setting [2]), 78.

With `Brc1ccc(Cn2ccc3nc(-c4ccccn4)nc-3c2)cc1` [GPJN-58, 5-[(4-Bromophenyl)methyl]-2-(2-pyridinyl)-5H-imidazo[4,5-c]pyridine], the SI in data set [1] is recorded as 15; in the data set with BVDV-1 (strain PE515) (setting [2]), 156.

Turning to `Fc1ccccc1-c1nc2ccn(Cc3ccc(Cl)cc3)cc-2n1` [GPJN-112, 5-[(4-Chlorophenyl)methyl]-2-(2-fluorophenyl)-5H-imidazo[4,5-c]pyridine], the SI in data set [1] is >58; in the data set with BVDV-1 (strain PE515) (Table 10, SI: MTC/EC50) it was 4082.
